From PubChem BioAssay AID485294 (National Center for Advancing Translational Sciences (NCATS), 2010)
This is a selection; strong and weak results do not stand in their true shares. Results filed as inconclusive are left out. Calls of active or inactive are those of the source. Calls follow the shape of the dose curve; as a rule, active = well fitted inhibition curve with a large enough effect; inconclusive = small, poorly fitted or top-dose-only effect; inactive = flat fitted curve, though single readings scatter.

The chains behind the UniProt entries cited, without tags or fusion partners.
UniProt P00811, whole entry: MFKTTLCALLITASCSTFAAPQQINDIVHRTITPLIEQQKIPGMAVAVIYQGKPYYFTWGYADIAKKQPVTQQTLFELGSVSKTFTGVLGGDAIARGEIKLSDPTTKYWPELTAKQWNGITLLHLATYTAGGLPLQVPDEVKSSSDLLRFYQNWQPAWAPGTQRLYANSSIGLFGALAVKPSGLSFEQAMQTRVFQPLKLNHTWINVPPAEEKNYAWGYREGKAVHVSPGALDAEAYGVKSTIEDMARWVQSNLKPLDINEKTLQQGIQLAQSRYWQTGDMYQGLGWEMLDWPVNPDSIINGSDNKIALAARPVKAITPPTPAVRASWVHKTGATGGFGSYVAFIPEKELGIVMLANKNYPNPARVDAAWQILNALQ

These compounds were tested against Beta-lactamase (Escherichia coli (strain K12)) (UniProt P00811) (assay: qHTS Inhibitors of AmpC Beta-Lactamase (assay with detergent)). Settings: AmpC hydrolysis of nitrocefin, absorbance 480 nm, 0.01% Triton; at 114 µM (top of the series).
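Also: 0% = no-compound wells and -100% = no-enzyme wells; nearly all actives have a fitted effect of over 25% in size.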

| Structure (SMILES) | activity change, negative = inhibition |
| --- | --- |
| CP(=O)(Nc1ccccn1)Oc1ccc(Cl)cc1 (centres undefined) | inactive: 1.33% |
| CCOP(C)(=S)SCC(=O)NC(C)C(=O)O (centres undefined) | inactive: -4.17% |
| CCOC(=O)c1ccc(NP(C)(=O)Oc2ccc(OC)cc2)cc1 (centres undefined) | inactive: -3.62% |
| Cc1cc(C)cc(OP(C)(=O)Nc2ccc(SC(F)(F)F)cc2)c1 (centres undefined) | inactive: -5.67% |
| CP(=O)(NC(=O)Nc1ccccc1)Oc1ccccc1 (centres undefined) | inactive: -16.7% |
| CCc1ccc(OP(C)(=O)N2CCN(c3ccc([N+](=O)[O-])cc3)CC2)cc1 (centres undefined) | inactive: 6.65% |
| Cc1cccc(C)c1OP(C)(=O)Nc1ccc(SC(F)(F)F)cc1 (centres undefined) | inactive: -10.2% |
| CP(=O)(Nc1ccc(SC(F)(F)F)cc1)Oc1ccc(Cl)cc1 (centres undefined) | inactive: 3.24% |
| COc1ccccc1OP(C)(=O)Nc1ccccc1 (centres undefined) | inactive: 2.82% |
| CP(=O)(Nc1ccccc1Br)Oc1ccccc1 (centres undefined) | inactive: -14% |
| CP(=S)(Nn1cnnc1)Oc1ccccc1 (centres undefined) | inactive: 2.32% |
| COc1ccc(OP(C)(=O)Nc2cccc(F)c2)cc1 (centres undefined) | inactive: -11.9% |
| COc1ccccc1OP(C)(=O)Nc1cc(Cl)ccc1C (centres undefined) | inactive: 1.39% |
| CCOC(=O)c1ccc(NP(C)(=O)Oc2ccccc2)cc1 (centres undefined) | inactive: -4.82% |
| Cc1ccc(NP(C)(=O)Oc2ccccc2)c(C)c1 (centres undefined) | inactive: 14.4% |
| COc1ccccc1OP(C)(=O)Nc1ccc(C)cc1 (centres undefined) | inactive: -9.6% |
| Cc1cccc(C)c1OP(C)(N)=O (centres undefined) | inactive: 5.67% |
| CC(C)(C)c1ccc(OP(C)(=O)Nc2ccc(SC(F)(F)F)cc2)cc1 (centres undefined) | inactive: -9.14% |
| O=[N+]([O-])c1ccc2c(c1)C=Nc1ccccc1O2 | inactive: -1.42% |
| O=[N+]([O-])c1cc([N+](=O)[O-])c(Nc2cccnc2)c([N+](=O)[O-])c1 | inactive: 0.005% |
| CCN(CC)CCCOC(=O)C(O)(c1ccccc1)c1ccccc1 | inactive: -5.88% |
| Cc1cc(C)cc(OP(C)(=O)Nc2ccccn2)c1 (centres undefined) | inactive: -2.23% |
| CP(=O)(Nc1cccc(Br)c1)Oc1ccccc1 (centres undefined) | inactive: -7.48% |

| Structure (SMILES) | activity change, negative = inhibition |
| --- | --- |
| Cc1ccc(C)c(NP(C)(=O)Oc2ccccc2)c1 (centres undefined) | inactive: 0.253% |
| Cc1cc(C)cc(OP(C)(=O)Nc2ccc(C)cc2C)c1 (centres undefined) | inactive: -4.81% |
| CCOC(=O)c1ccc(NP(C)(=O)Oc2cc(C)cc(C)c2)cc1 (centres undefined) | inactive: -2.9% |
| COc1ccccc1OP(C)(=O)Nc1cccc(Br)c1 (centres undefined) | inactive: 1.17% |
| CC1=NCCc2c1[nH]c1ccccc21.O=[N+]([O-])c1cc([N+](=O)[O-])c(O)c([N+](=O)[O-])c1 | inactive: -0.292% |
| CP(=O)(Nc1ccc(SC(F)(F)F)cc1)Oc1ccccc1 (centres undefined) | inactive: -10.5% |
| COc1ccccc1OP(C)(=O)Nc1c(C)cccc1C (centres undefined) | inactive: -3.45% |
| CN1CCCCC1COC(=O)C1(O)c2ccccc2CCc2ccccc21 (centres undefined) | inactive: -10% |
| O=[N+]([O-])c1cc([N+](=O)[O-])c(Nc2nnnn2CCO)c([N+](=O)[O-])c1 | inactive: 1.19% |
| O=[N+]([O-])c1cc([N+](=O)[O-])c(-n2nnc3ccccc32)c([N+](=O)[O-])c1 | inactive: -0.786% |
| Cc1ccccc1NP(C)(=O)Nc1ccccc1C | inactive: -0.063% |
| CP(=O)(Nc1ccc2c(c1)OCCO2)Oc1ccccc1 (centres undefined) | inactive: -7.3% |
| CCOP(C)(=S)SCC(=O)NC(C)(CC)C(=O)O (centres undefined) | inactive: 3.38% |
| CP(=O)(Nc1ccc(SC(F)(F)F)cc1)Oc1ccc(F)cc1 (centres undefined) | inactive: 0.261% |
| Cc1cc(-c2cccc3ccccc23)c(C)cn1.O=[N+]([O-])c1cc([N+](=O)[O-])c(O)c([N+](=O)[O-])c1 | inactive: -6% |
| COc1ccc(NP(C)(=O)Oc2ccccc2OC)cc1 (centres undefined) | inactive: 0.0588% |
| CN(C)CCOC(=O)C(O)(c1ccccc1)C1CCCCC1 (centres undefined) | inactive: 0.833% |
| COc1ccc(OP(C)(=O)Nc2cccc(Br)c2)cc1 (centres undefined) | inactive: -0.286% |
| CCCCCOc1ccc(NP(C)(=O)Oc2ccc(Cl)cc2Cl)cc1 (centres undefined) | inactive: 4.87% |
| CP(=O)(Nc1ccccc1)Oc1ccc(F)cc1 (centres undefined) | inactive: -3.5% |
| CCN(CC)CCCOC(=O)C(O)(c1ccccc1)C1CCCCC1 (centres undefined) | inactive: -4.74% |
| COc1ccc(OP(C)(=O)Nc2ccc(SC(F)(F)F)cc2)cc1 (centres undefined) | inactive: 2.8% |
| CCOC(=O)c1ccc(NP(C)(=O)Oc2ccc(F)cc2)cc1 (centres undefined) | inactive: 21.7% |

| Structure (SMILES) | activity change, negative = inhibition |
| --- | --- |
| CC(C)c1ccc(OP(C)(=O)Nc2ccc(SC(F)(F)F)cc2)cc1 (centres undefined) | inactive: -0.281% |
| CCc1ccc(OP(C)(=O)O)cc1 | inactive: 0.155% |
| COc1ccccc1OP(C)(=O)Nc1ccc(C)cc1C (centres undefined) | inactive: 4.68% |
| CP(=O)(Nc1ccccn1)Oc1ccccc1 (centres undefined) | inactive: -6.16% |
| Cc1c(NP(C)(=O)Oc2ccc(C(C)C)cc2)c(=O)n(-c2ccccc2)n1C (centres undefined) | inactive: -2.04% |
| O=[N+]([O-])c1cc([N+](=O)[O-])c(Nc2ccccn2)c([N+](=O)[O-])c1 | inactive: -0.708% |
| CN(C)CCOC(=O)C(O)(c1ccccc1)C1CCCC1 (centres undefined) | inactive: 1.67% |
| COc1ccccc1OP(C)(=O)Nc1ccc(Br)cc1 (centres undefined) | inactive: 6.05% |
| CP(=O)(OCCOc1ccccc1)OCCOc1ccccc1 | inactive: -2.23% |
| Cc1nc2ccc3ccccc3c2o1.O=[N+]([O-])c1cc([N+](=O)[O-])c(O)c([N+](=O)[O-])c1 | inactive: -10.2% |
| COc1ccccc1OP(C)(=O)Nc1ccc(C)c(C)c1 (centres undefined) | inactive: -13.7% |
| Cc1cc(C)cc(OP(C)(=O)Nc2cccc(C(F)(F)F)c2)c1 (centres undefined) | inactive: 2.8% |
| CP(=O)(OC12CC3CC(CC(C3)C1)C2)OC12CC3CC(CC(C3)C1)C2 | inactive: -5.89% |
| CN(C)C(=O)c1c([N+](=O)[O-])cc([N+](=O)[O-])cc1[N+](=O)[O-] | inactive: -13.8% |
| CP(=O)(Nc1ccc(Cl)cc1)Oc1ccc(F)cc1 (centres undefined) | inactive: -6.53% |
| COc1ccccc1OP(C)(=O)Nc1ccccc1Br (centres undefined) | inactive: -0.67% |
| CC(C)(C)c1ccc(OP(C)(=O)O)cc1 | inactive: -7.51% |
| CCc1ccc(OP(C)(=O)Nc2cccnc2)cc1 (centres undefined) | inactive: 1.46% |
| CP(=O)(Oc1ccccc1)N1CCOC1=O (centres undefined) | inactive: -3.06% |
| O=C(OCCCN1CCCC1)C(O)(c1ccccc1)C1CCCCC1 (centres undefined) | inactive: -7.56% |
| COc1ccccc1OP(C)(=O)Nc1c(C)n(C)n(-c2ccccc2)c1=O (centres undefined) | inactive: -10.6% |
| COc1ccc(OP(C)(=O)Nc2ccc(Br)cc2)cc1 (centres undefined) | inactive: -1.04% |
| CCN(CC)CC(O)COC(=O)C(O)(c1ccccc1)C1CCCCC1 (centres undefined) | inactive: -1.46% |
